Assay: Haematological changes after treatment of infected vervet monkeys
Type: in vivo, vervet monkey

CONC(=N)c1ccc(-c2ccc(-c3ccc(C(=N)NOC)cn3)o2)nc1 [DB868, 2,5-bis[5-(N-methoxyamidino)-2-pyridyl]furan]
time for RBC counts to recover to baseline levels upon treatment (DB829 IM or DB868 orally): 1–2 months | time for platelet cell counts to recover to baseline (pre-infection) levels (post-LDD of DB868): Within one week

— PMC4318582, “Chemotherapy of Second Stage Human African Trypanosomiasis: Comparison between the Parenteral Diamidine DB829 and Its Oral Prodrug DB868 in Vervet Monkeys” (PLoS Neglected Tropical Diseases, 2015)
